OD405 data for 1 substance are collected here from patent publication US20070218001A1.

The assay deals with biotin-… peptide (Bacillus anthracis).

“phage-displayed third PDZ domain of human Dlg1 (in pCANTAB5E)”: the OD405 amounted to 0.496 OD405.
